Measured values reported in ChEMBL document CHEMBL1122575, “Dependence of beta-lactamase stability on substructures within beta-lactam antibiotics” (J Med Chem, 1984).

Columns and labels:
Escherichia coli [1] = assay: Compound was evaluated for the antibacterial activity against Escherichia coli (RTEM- organism); 0.8/1.6
Escherichia coli [2] = assay: Compound was evaluated for the antibacterial activity against Escherichia coli (RTEM+ organism); 12.5/50

SMILES: CC(C)(O/N=C(/C(=O)N[C@H]1CN(OP(C)(=O)O)C1=O)c1csc(N)n1)C(=O)O
- MIC (Escherichia coli [1]): 0.8 µg/mL (≈ 1.84 µM)
- MIC (Escherichia coli [2]): 12.5 µg/mL (≈ 28.7 µM)

In brackets after ≈: the same amount, converted by molar mass.
